{"sequences": {"note": "Amino acid sequences for entries named in this document (tags omitted). Residues count along the entry.", "UniProt P06935, 1371-1501 limits assumed": "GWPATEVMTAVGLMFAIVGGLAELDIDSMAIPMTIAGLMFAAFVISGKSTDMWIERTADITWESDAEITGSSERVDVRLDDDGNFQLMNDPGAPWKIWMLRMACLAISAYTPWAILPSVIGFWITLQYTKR", "UniProt P06935, 1502-1679 limits assumed": "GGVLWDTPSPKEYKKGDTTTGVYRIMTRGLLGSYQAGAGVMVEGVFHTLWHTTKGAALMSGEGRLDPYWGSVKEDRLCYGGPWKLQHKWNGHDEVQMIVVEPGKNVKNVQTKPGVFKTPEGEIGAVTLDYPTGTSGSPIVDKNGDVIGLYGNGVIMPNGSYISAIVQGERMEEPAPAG"}, "source": "PubChem BioAssay AID577", "about": "(University of Pittsburgh Molecular Library Screening Center, 2007)", "note": "The entries are a selection whose mix differs from that of the whole data set. Activity calls are given as the source filed them. Rule as the data show it: active = z-score below about -3; inactive = the rest."}
{"molecular_target": "Genome polyprotein (West Nile virus) (UniProt P06935)", "assay": "West Nile NS2B-NS3 proteinase blockers – biochemical, fluorogenic substrate, primary screen (AID 577)", "settings": "WNV NS2B-NS3 protease, fluorogenic substrate Ex360/Em465; stronger effect = lower value"}
{"molecule": "Cc1c2non([O-])c-2c(C)[n+](=O)[n+]1[O-]", "z-score": "inactive: 0.81"}
{"molecule": "CP(=O)(Nc1ccccn1)Oc1ccccc1", "note": "(stereo not drawn)", "z-score": "inactive: -0.82"}
{"molecule": "COc1ccccc1OP(C)(=O)Nc1ccc(C)c(C)c1", "note": "(stereo not drawn)", "z-score": "inactive: -0.17"}
{"molecule": "Cc1nc2ccc3ccccc3c2o1.O=[N+]([O-])c1cc([N+](=O)[O-])c(O)c([N+](=O)[O-])c1", "z-score": "inactive: 0.04"}
{"molecule": "CCN(CC)CC(O)COC(=O)C(O)(c1ccccc1)C1CCCCC1", "note": "(stereo not drawn)", "z-score": "inactive: 0.22"}
{"molecule": "COc1ccccc1OP(C)(=O)Nc1c(C)n(C)n(-c2ccccc2)c1=O", "note": "(stereo not drawn)", "z-score": "inactive: 0.32"}
{"molecule": "CP(=O)(Oc1ccccc1)N1CCOC1=O", "note": "(stereo not drawn)", "z-score": "inactive: -0.72"}
{"molecule": "CCc1nc2c(n1)c1c(non1O)c1c2no[n+]1[O-]", "z-score": "inactive: -0.4"}
{"molecule": "O=P(Nc1nccs1)(c1ccccc1)c1ccccc1", "z-score": "inactive: 0.29"}
{"molecule": "CCOP(C)(=S)SCC(=O)NC(C)(CC)C(=O)O", "note": "(stereo not drawn)", "z-score": "inactive: -0.78"}
{"molecule": "c1nnnn1CCn1cnnn1", "z-score": "inactive: 1.27"}
{"molecule": "CP(=O)(Nc1ccc2c(c1)OCCO2)Oc1ccccc1", "note": "(stereo not drawn)", "z-score": "inactive: -0.34"}
{"molecule": "Cc1ccccc1NP(C)(=O)Nc1ccccc1C", "z-score": "inactive: -0.83"}
{"molecule": "CN(C)CCOC(=O)C(O)(c1ccccc1)C1CCCCC1", "note": "(stereo not drawn)", "z-score": "inactive: 1.22"}
{"molecule": "O=C(OC1CN2CCC1CC2)c1cccc(Cl)c1", "note": "(stereo not drawn)", "z-score": "inactive: 0.96"}
{"molecule": "COC(=O)c1cc2c(s1)N=C(c1ccccc1)N(C)P2(=O)N1CCOCC1", "note": "(stereo not drawn)", "z-score": "inactive: -0.45"}
{"molecule": "O=P1(Nc2nc3ccc(Cl)cc3s2)COc2ccccc2O1", "note": "(stereo not drawn)", "z-score": "inactive: 0.16"}
{"molecule": "CP(=O)(Nc1ccccc1F)Oc1ccccc1", "note": "(stereo not drawn)", "z-score": "inactive: -1.18"}
{"molecule": "Cc1cccc(OCC(=O)OC2CN3CCC2CC3)c1", "note": "(stereo not drawn)", "z-score": "inactive: -0.01"}
{"molecule": "Cc1ccc(C)c(NP(C)(=O)Oc2ccccc2)c1", "note": "(stereo not drawn)", "z-score": "inactive: 0.4"}
{"molecule": "CCOP1(=S)c2c(C)nn(CCC#N)c2N=C(c2ccccc2F)N1C", "note": "(stereo not drawn)", "z-score": "inactive: -0.1"}
{"molecule": "O=P(Nc1nccs1)(c1ccccc1)c1nc2ccccc2s1", "note": "(stereo not drawn)", "z-score": "inactive: -0.67"}
{"molecule": "CCOP1(=S)c2c(C)nn(CCC#N)c2N=C(c2ccc(F)cc2)N1C", "note": "(stereo not drawn)", "z-score": "inactive: 0.8"}
{"molecule": "Cc1nn(-c2ccccc2)c2c1P(=O)(N1CCOCC1)N(C)C(c1ccccc1)=N2", "note": "(stereo not drawn)", "z-score": "inactive: 0.67"}
{"molecule": "O=P1(Nc2ncccn2)COc2ccccc2OC1", "z-score": "inactive: 0.79"}
{"molecule": "Cc1ccc(OCC(=O)OC2CN3CCC2CC3)cc1", "note": "(stereo not drawn)", "z-score": "inactive: -0.14"}
{"molecule": "O=P1(Nc2ccc(Br)cn2)COc2ccccc2OC1", "z-score": "inactive: 0.42"}
{"molecule": "O=P1(Nc2ccccn2)COc2ccccc2OC1", "z-score": "inactive: 0.29"}
{"molecule": "Clc1n[nH]nc1-c1nn[nH][15n]1", "z-score": "inactive: -0.93"}
{"molecule": "Cc1nc2ccc3ccccc3c2s1.O=[N+]([O-])c1cc([N+](=O)[O-])c(O)c([N+](=O)[O-])c1", "z-score": "inactive: -0.73"}
{"molecule": "COP1(=S)c2c(C)nn(CCC#N)c2N=C(c2ccc(F)cc2)N1C", "note": "(stereo not drawn)", "z-score": "inactive: -0.11"}
{"molecule": "CP(=O)(NC(=O)Nc1ccccc1)Oc1ccccc1", "note": "(stereo not drawn)", "z-score": "inactive: -0.41"}
{"molecule": "O=C(COc1ccccc1)OC1CN2CCC1CC2", "note": "(stereo not drawn)", "z-score": "inactive: 1.05"}
{"molecule": "CCOP(C)(=S)SCC(=O)NC(C)C(=O)O", "note": "(stereo not drawn)", "z-score": "inactive: 1.37"}
{"molecule": "CP(=S)(Nn1cnnc1)Oc1ccccc1", "note": "(stereo not drawn)", "z-score": "inactive: -1.06"}
{"molecule": "COc1ccccc1OP(C)(=O)Nc1ccc(C)cc1", "note": "(stereo not drawn)", "z-score": "inactive: 0.08"}
{"molecule": "Cc1ccc(NP(C)(=O)Oc2ccccc2)c(C)c1", "note": "(stereo not drawn)", "z-score": "inactive: -1.06"}
{"molecule": "O=C(OC1CN2CCC1CC2)C12CC3CC(CC(C3)C1)C2", "note": "(stereo not drawn)", "z-score": "inactive: -1.45"}
